Experimental data from publication PMC7157532.

Target: T1, MoMsn2 (UniProt G4NBR8)
T1 sequence (looked up): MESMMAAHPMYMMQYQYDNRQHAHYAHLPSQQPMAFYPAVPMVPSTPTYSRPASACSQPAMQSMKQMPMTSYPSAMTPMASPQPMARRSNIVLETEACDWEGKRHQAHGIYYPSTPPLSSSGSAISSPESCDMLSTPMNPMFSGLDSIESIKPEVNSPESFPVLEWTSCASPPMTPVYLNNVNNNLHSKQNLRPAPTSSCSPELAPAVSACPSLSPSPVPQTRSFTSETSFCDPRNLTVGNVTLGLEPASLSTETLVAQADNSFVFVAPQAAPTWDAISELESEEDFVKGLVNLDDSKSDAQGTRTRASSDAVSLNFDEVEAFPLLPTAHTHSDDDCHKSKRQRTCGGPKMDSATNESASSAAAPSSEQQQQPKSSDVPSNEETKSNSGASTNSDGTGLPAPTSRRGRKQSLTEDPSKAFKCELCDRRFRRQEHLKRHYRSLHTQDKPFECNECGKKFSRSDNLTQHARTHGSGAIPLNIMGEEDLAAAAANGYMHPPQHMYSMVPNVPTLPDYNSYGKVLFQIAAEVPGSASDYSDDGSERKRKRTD
Assay: EMSA
Conditions: recombinant protein, residues 1-548, probe letters rebuilt from the primers and the genome

Sequence | binding result (label: 5' Alex 660) | binding result
GCGTCTGAGCTTGTGGTAAGCAACGGAAATGATCTGGCTGCAGATATAGGAACAAAGGCTTTAGCGGTAGCAATTGTTCAGGGGCCAAGCAAGCCTGGACCTGAGCTAAATCTGCACCAGTGAAGAGCTAATAGCTTCTTGATTCAGGAACTTAGTGTCTCCGTCGCCTAGCTGGTTGAAGATTTATTGATTTTCTACTGGGCCTAGCGTCGGCTGAGCATGAGGCCTACCATGGGCTTGACCATGTTACTCGGATGTGAGCTCGTCTTGGAGGAGCATCTGAGACTTGGCATTGCCTCACTTGCCATGCAGAGCCTTCACGGAAACGTCATTATGCGCCCCGGGCACATACTGTATACTCATGTTGTACTGGAGTCATCTGGCGCAGGGATAGATGCCAACAAGGCGAAATATATCAGGAGGACCCTACAATCCTGTTATGAGAAACGTGCCTGTTCCCTGAGAAGGTAAAAAAGAGGCTCCTCTGCCACCATCAAACAGTACTGGTTTCTGTGACGGTGTACTCATCTTATTCGCTCCCTGCCTATTGATCACACTCATTAAATTCTTATTTCTCAATCCTTCAATCCTCTTTACGAGAATCAATATCGTTCCTTACTTCCAACCCGAGGCAGTGCCGCCATCCGCCCTCCTAGACTAGTACTCCGCGTTCATTTCCACCTTAGGTGCCCCTCGGCAACTCAGGAGCCACTCATTTGCGATATACCATCCAGCTTTCTCTTCTAGCTTCTTCAGCTAAAAGGCTCGGATACTAGAAAAGCCCGTCCCTCTCTCTGCCCTGATTGCTGGAGCTGGACAGACCCAAGCATCTCGGCCATCACTCTCCTTAGCAGCATCGCCGCTTACACTCTCTTTACACACCTTTTCTTCTTCTTTTTTTTCTTTCTCACCAAGCTGAGCTTGCACTTTCCCTTCTTCTTAGCCTCTTCTTTTCACCAATTTCCAACCATAACA (double strand) [Alex 660-labeled MoAA91 promoter 1,000-bp DNA] | binds | 
GCGTCTGAGCTTGTGGTAAGCAACGGAAATGATCTGGCTGCAGATATAGGAACAAAGGCTTTAGCGGTAGCAATTGTTCAGGGGCCAAGCAAGCCTGGACCTGAGCTAAATCTGCACCAGTGAAGAGCTAATAGCTTCTTGATTCAGGAACTTAGTGTCTCCGTCGCCTAGCTGGTTGAAGATTTATTGATTTTCTACTGGGCCTAGCGTCGGCTGAGCATGAGGCCTACCATGGGCTTGACCATGTTACTCGGATGTGAGCTCGTCTTGGAGGAGCATCTGAGACTTGGCATTGCCTCACTTGCCATGCAGAGCCTTCACGGAAACGTCATTATGCGCCCCGGGCACATACTGTATACTCATGTTGTACTGGAGTCATCTGGCGCAGGGATAGATGCCAACAAGGCGAAATATATCAGGAGGACCCTACAATCCTGTTATGAGAAACGTGCCTGTTCCCTGAGAAGGTAAAAAAGAGGCTCCTCTGCCACCATCAAACAGTACTGGTTTCTGTGACGGTGTACTCATCTTATTCGCTCCCTGCCTATTGATCACACTCATTAAATTCTTATTTCTCAATCCTTCAATCCTCTTTACGAGAATCAATATCGTTCCTTACTTCCAACCCGAGGCAGTGCCGCCATCCGCCCTCCTAGACTAGTACTCCGCGTTCATTTCCACCTTAGGTGCCCCTCGGCAACTCAGGAGCCACTCATTTGCGATATACCATCCAGCTTTCTCTTCTAGCTTCTTCAGCTAAAAGGCTCGGATACTAGAAAAGCCCGTCCCTCTCTCTGCCCTGATTGCTGGAGCTGGACAGACCCAAGCATCTCGGCCATCACTCTCCTTAGCAGCATCGCCGCTTACACTCTCTTTACACACCTTTTCTTCTTCTTTTTTTTCTTTCTCACCAAGCTGAGCTTGCACTTTCCCTTCTTCTTAGCCTCTTCTTTTCACCAATTTCCAACCATAACA (double strand) [MoAA91 promoter full-length / 1,000-bp DNA] |  | binds

Protein sequences can lack the tags named with them.
